# Source: publication PMC12703733 (Journal of Medicinal Chemistry, 2025)
# Bridge positions count the residues as written; N and C are the ends. Square brackets hold non-standard residues; d marks the D form. Peptide text beside a SMILES is read from it.
# Columns and labels:
# [1] = Laurdan membrane fluidity assay
# [2] = Laurdan membrane fluidity assay; remark: listed apart in the source
structure (smiles),measurement,setting,value
"CC[C@H](C)[C@H](NC(=O)[C@H](CCCNC(=N)N)NC(=O)[C@H]1CCC(=O)NCCCC[C@H](NC(=O)[C@H](Cc2ccccc2)NC(=O)[C@H](Cc2c[nH]c3ccccc23)NC(=O)[C@@H]2CCCN2C(=O)[C@@H](NC(=O)[C@@H](N)Cc2ccccc2)C(C)C)C(=O)N[C@@H](CCCCN)C(=O)N[C@@H](Cc2ccccc2)C(=O)N[C@H](CC(C)C)C(=O)N1)C(=O)N[C@@H](CC(C)C)C(N)=O [Peptide 2, FVPWF[KKFle]RIL] (H-FVPWFKKF[dL][dE]RIL-NH2; lactam 6-10)",GPlaurdan,[1]; DOPG/CL + cmpd 25 μM,-0.11
same,GPlaurdan,[1]; DOPG/CL + cmpd 50 μM,0.01
same,GPlaurdan,[2]; DOPG/DOPE/CL + cmpd 25 μM,-0.18
same,GPlaurdan,[2]; DOPG/DOPE/CL + cmpd 50 μM,0.07
